Test results from patent US6534523B1, “Hepatitis C inhibitor tri-peptides” (Boehringer Ingelheim (Canada) Ltd., priority 1998, dated 2003).
Where two headings read alike, the source gives them in different places.

Protein sequences, listed by entry. Tags and fused reporters are not part of them. Lines headed by an entry give the natural chain unless they say otherwise; changes in a name come on top. Residues count along the entry.
UniProt P26663, 1027-1206 limits assumed: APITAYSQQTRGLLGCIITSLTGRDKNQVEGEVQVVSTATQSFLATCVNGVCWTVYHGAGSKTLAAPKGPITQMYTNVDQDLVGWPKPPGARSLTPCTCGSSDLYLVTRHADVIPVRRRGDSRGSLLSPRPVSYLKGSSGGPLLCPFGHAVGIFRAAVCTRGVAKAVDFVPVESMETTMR

Molecular target: HCV NS3 protease (UniProt P26663)
Protocol: Recombinant HCV NS3 Protease/NS4A Cofactor Peptide Radiometric Assay
The enzyme was cloned, expressed and prepared according to the protocol described in Example 36. The enzyme was stored at −80° C., thawed on ice and diluted just prior to use in the assay buffer containing the NS4A cofactor peptide.
The substrate used for the NS3 protease/NS4A cofactor peptide radiometric assay, DDIVPC-SMSYTW, is cleaved between the cysteine and the serine residues by the enzyme. The sequence DDIVPC-SMSYTW corresponds to the NS5A/NS5B natural cleavage site in which the cysteine residue in P2 has been substituted for a proline. The peptide substrate DDIVPC-SMSYTW and the tracer biotin-DDIVPC-SMS[^125I-Y]TW are incubated with the recombinant NS3 protease and the NS4A peptide cofactor KKGSVVIVGRIILSGRK (molar ratio enzyme:cofactor 1:100) in the absence or presence of inhibitors. The separation of substrate from products is performed by adding avidin-coated agarose beads to the assay mixture followed by filtration. The amount of SMS[^125I-Y]TW product found in the filtrate allows for the calculation of the percentage of substrate conversion and of the percentage of inhibition.
The enzymatic reaction was initiated by the addition of the enzyme/NS4A peptide solution and the assay mixture was incubated for 40 min at 23° C. under gentle agitation. Ten (10) μL of 0.5N NaOH were added and 10 μL 1 M MES, pH 5.8 were added to quench the enzymatic reaction.
A non-linear curve fit with the Hill model was applied to the inhibition-concentration data, and the 50% effective concentration (IC50) was calculated by the use of SAS software (Statistical Software System; SAS Institute, Inc. Cary, N.C.). […]
The NS2-NS5B-3′ non coding region was cloned by RT-PCR into the pCR®3 vector (Invitrogen) using RNA extracted from the serum of an HCV genotype 1b infected individual (provided by Dr. Bernard Willems, Hôpital St-Luc, Montréal, Québec, Canada). The NS3-NS4A DNA region was then subcloned by PCR into the pFastBac™ HTa baculovirus expression vector (Gibco/BRL). The vector sequence includes a region encoding a 28-residue N-terminal sequence which contains a hexahistidine tag. The Bac-to-Bac™ baculovirus expression system (Gibco/BRL) was used to produce the recombinant baculovirus. The full length mature NS3 and NS4A heterodimer protein (His-NS3-NS4AFL) was expressed by infecting 10^6 Sf21 cells/mL with the recombinant baculovirus at a multiplicity of infection of 0.1-0.2 at 27° C. The infected culture was harvested 48 to 64 h later by centrifugation at 4° C. The cell pellet was homogenized in 50 mM NaPO4, pH 7.5, 40% glycerol (w/v), 2 mM β-mercaptoethanol, in presence of a cocktail of protease inhibitors. His-NS3-NS4AFL was then extracted from the cell lysate with 1.5% NP-40, 0.5% Triton X-100, 0.5M NaCl, and a DNase treatment. After ultracentrifugation, the soluble extract was diluted 4-fold and bound on a Pharmacia Hi-Trap Ni-chelating column. The His-NS3-NS4AFL was eluted in a >90% pure form (as judged by SDS-PAGE), using a 50 to 400 mM imidazole gradient. The His-NS3-NS4AFL was stored at −80° C. in 50 mM sodium phosphate, pH 7.5, 10% (w/v) glycerol, 0.5 M NaCl, 0.25 M imidazole, 0.1% NP-40. It was thawed on ice and diluted just prior to use. The protease activity of His-NS3-NS4AFL was assayed in 50 mM Tris-HCl, pH 8.0, 0.25 M sodium citrate, 0.01% (w/v) n-dodecyl-β-D-maltoside, 1 mM TCEP. Five (5) μM of the internally quenched substrate anthranilyl-DDIVPAbu[C(O)—O]-AMY(3-NO2)TW-OH in presence of various concentrations of inhibitor were incubated with 1.5 nM of His-NS3-NS4AFL for 45 min at 23° C. […] The reaction was terminated with the addition of 1M MES, pH 5.8. Fluorescence of the N-terminal product was monitored on a Perkin-Elmer LS-50B fluorometer equipped with a 96-well plate reader (excitation wavelength: 325 nm; emission wavelength: 423 nm).
The following tables list compounds representative of the invention.

[1] = read-out: activity / potency (HCV NS3 protease inhibition), text comparison of P1 configuration

| Structure (SMILES) | IC50 (Table 3) [nM] | further results |
| --- | --- | --- |
| C=CC1CC1(NC(=O)C1CC(Oc2cc(-c3csc(N)n3)nc3ccccc23)CN1C(=O)C(NC(=O)OC(C)(C)C)C(C)(C)C)C(=O)O (stereo not shown) |  | IC50 (Table 6): 87 nM |
| CC(C)(C)OC(=O)NC(C(=O)N1CC(Oc2nc(-c3ccccc3)nc3ccccc23)CC1C(=O)NC1(C(=O)O)CC1C1CC1)C(C)(C)C (stereo not shown) | 640 |  |
| C=CC1CC1(NC(=O)C1CC(Oc2ccnc3ccccc23)CN1C(=O)C(C)NC(=O)OC(C)(C)C)C(=O)O (stereo not shown) |  | IC50 (Table 5): 6200 nM |
| C=CC1CC1(NC(=O)C1CC(Oc2cc(-c3ccccc3)nc3ccc(NC(C)=O)cc23)CN1C(=O)C(NC(=O)OC(C)(C)C)C1CCCCC1)C(=O)O (stereo not shown) | 320 |  |
| C=CC1CC1(NC(=O)C1CC(Oc2cc(-c3ccccc3)nc3ccc(N)cc23)CN1C(=O)C(NC(=O)OC(C)(C)C)C1CCCCC1)C(=O)O (stereo not shown) | 660 |  |
| C=CC1CC1(NC(=O)C1CC(Oc2cc(-c3ccccn3)nc(-c3ccccn3)c2)CN1C(=O)C(NC(=O)OC(C)(C)C)C(C)(C)C)C(=O)O (stereo not shown) | 360 |  |
| CC(C)(C)OC(=O)N[C@H](C(=O)N1C[C@H](Oc2ccnc3cc(Cl)ccc23)C[C@H]1C(=O)NC1(C(=O)O)CCC1)C(C)(C)C |  | IC50 (Table 4): 7900 nM |
| C=CC1CC1(NC(=O)C1CC(Oc2cc(-c3ccccc3)nc3ccccc23)CN1C(=O)C(NC(=O)OC(C)(C)C)C1CCCCC1)C(=O)O (stereo not shown) | 140 |  |
| C=CC1CC1(NC(=O)C1CC(Oc2cc(Cl)c3ccccc3n2)CN1C(=O)C(NC(=O)OC(C)(C)C)C(C)(C)C)C(=O)O (stereo not shown) | 3200 |  |
| C=CC1CC1(NC(=O)C1CC(Oc2nc(N3CCOCC3)nc3cc(OC)c(OC)cc23)CN1C(=O)C(NC(=O)OC(C)(C)C)C(C)(C)C)C(=O)O (stereo not shown) | 50 |  |
| CCC1CC1(NC(=O)[C@@H]1C[C@@H](OCc2cccc3ccccc23)CN1C(=O)[C@@H](NC(=O)OC(C)(C)C)C1CCCCC1)C(=O)O (single isomer, unassigned) [202] |  | IC50 (Table 2): 40000 nM |
| C=C[C@H]1C[C@]1(NC(=O)[C@@H]1C[C@@H](Oc2cc(-c3ccccc3)nc3cc(OC)ccc23)CN1C(=O)[C@@H](NC(=O)OC(C)(C)C)C(C)(C)C)C(=O)O |  | IC50 (Table 2): 82 nM; IC50 [1]: 82 nM |
| O=C(NC1CCCCC1)N[C@H](C(=O)N1C[C@H](OCc2cccc3ccccc23)C[C@H]1C(=O)NC1(C(=O)O)CC1)C1CCCCC1 |  | IC50 (Table 1): 47000 nM |
| C=CC1CC1(NC(=O)C1CC(Oc2cc(-c3ccccc3)nc3ccccc23)CN1C(=O)C(NC(C)=O)C1CCCCC1)C(=O)O (stereo not shown) | 1900 |  |
| CC(C)[C@H](NC(=O)OC(C)(C)C)C(=O)N1C[C@H](Oc2cc(-c3ccccc3)nc3ccc([N+](=O)[O-])cc23)C[C@H]1C(=O)NC1(C(=O)O)CC1 |  | IC50 (Table 1): 8900 nM |
| CCC1CCC1(NC(=O)[C@@H]1C[C@@H](Oc2cc(-c3ccccc3)nc3cc(OC)ccc23)CN1C(=O)[C@@H](NC(=O)OC(C)(C)C)C(C)(C)C)C(=O)O (stereo partly shown) |  | IC50 (Table 4): 400 nM |
| C=CC1CC1(NC(=O)C1CC(Oc2cc(-c3csc(NC(C)=O)n3)nc3cc(OC)ccc23)CN1C(=O)C(NC(=O)NC(C)C(C)(C)C)C(C)(C)C)C(=O)O (stereo not shown) | 3 |  |
| C=CC1CC1(NC(=O)C1CC(Oc2ccnc3ccccc23)CN1C(=O)C(NC(=O)OC(C)(C)C)C(C)OC)C(=O)O (stereo not shown) [compound 505] |  | IC50 (Table 5): 2600 nM |
| COc1ccc2c(OC3CC(C(=O)NC4(C(=O)O)CC4C4CC4)N(C(=O)C(NC(=O)OC(C)(C)C)C(C)(C)C)C3)cc(-c3ccccc3)nc2c1 (stereo not shown) | 153 |  |
| C=CC1CC1(NC(=O)C1CC(Oc2cc(-c3ccccc3)nc3ccccc23)CN1C(=O)C(NC(=O)C(F)(F)F)C(C)C)C(=O)O (stereo not shown) | 880 |  |
| COc1ccc2c(O[C@@H]3C[C@@H](C(=O)NC4(C(=O)O)CC4)N(C(=O)[C@@H](NC(=O)OC(C)(C)C)C(C)(C)C)C3)cc(-c3ccccc3)nc2c1 |  | IC50 (Table 1): 475 nM; IC50 [1]: 475 nM |
| C=CC1CC1(NC(=O)C1CC(Oc2cccc3c2CCN(C(C)=O)C3)CN1C(=O)C(NC(=O)OC(C)(C)C)C(C)(C)C)C(=O)O (stereo not shown) | 6000 |  |

| Structure (SMILES) | IC50 (Table 3) [nM] | further results |
| --- | --- | --- |
| CC(C)[C@H](NC(=O)OC(C)(C)C)C(=O)N1C[C@H](Oc2ccnc3cc(Cl)ccc23)C[C@H]1C(=O)NC1(C(=O)O)CCC1 |  | IC50 (Table 4): 5800 nM |
| C=CC1CC1(NC(=O)C1CC(Oc2cc(C)nc3ccccc23)CN1C(=O)C(NC(=O)OC(C)(C)C)C1CCCCC1)C(=O)O (stereo not shown) | 2500 |  |
| C=C[C@@H]1C[C@]1(NC(=O)[C@@H]1C[C@@H](Oc2cccc3cnccc23)CN1C(=O)[C@@H](NC(=O)OC(C)(C)C)C1CCCCC1)C(=O)O | 2500 |  |
| C=CC1CC1(NC(=O)C1CC(Oc2ccnc3cc(OC)ccc23)CN1C(=O)C(NC(=O)NC(C)(C)C)C(C)(C)C)C(=O)O (stereo not shown) | 45 |  |
| C=CC1CC1(NC(=O)C1CC(Oc2ccnc3cc(Cl)ccc23)CN1C(=O)C(NC(=O)OC(C)(C)C)C1CCCCC1)C(=O)O (stereo not shown) | 560 |  |
| CCC1CC1(NC(=O)C1CC(Oc2cc(-c3ccccc3)nc3cc(OC)ccc23)CN1C(=O)C(NC(=O)OC(C)(C)C)C(C)(C)C)C(=O)O (stereo not shown) | 130 |  |
| C=CC1CC1(NC(=O)C1CC(Oc2cc(-c3csc(NCC)n3)nc3cc(OC)ccc23)CN1C(=O)C(NC(=O)NC(C)C(C)(C)C)C(C)(C)C)C(=O)O (stereo not shown) | 7 |  |
| C=CC1CC1(NC(=O)C1CC(Oc2cc(-c3ccccc3)nc3ccccc23)CN1C(=O)C(NC(=O)NC(C)(C)C)C(C)(C)C)C(=O)O (stereo not shown) | 71 |  |
| C=CC1CC1(NC(=O)C1CC(Sc2cc(-c3ccccc3)nc3cc(OC)ccc23)CN1C(=O)C(NC(=O)OC(C)(C)C)C(C)(C)C)C(=O)O (stereo not shown) |  | IC50 (Table 10): 320 nM |
| C=C1CC(NC(=O)[C@@H]2C[C@@H](Oc3cc(-c4ccccc4)nc4cc(OC)ccc34)CN2C(=O)[C@@H](NC(=O)OC(C)(C)C)C(C)(C)C)(C(=O)O)C1 |  | IC50 (Table 4): 600 nM |
| CC(C)[C@H](NC(=O)OC(C)(C)C)C(=O)N1C[C@H](Oc2ccnc3cc(Cl)ccc23)C[C@H]1C(=O)NC1(C(=O)O)CC1 |  | IC50 (Table 1): 9700 nM |
| CC(C)(C)OC(=O)N[C@H](C(=O)N1C[C@H](OCc2cccc3ccccc23)C[C@H]1C(=O)NC1(C(=O)O)CC1)C1CCCCC1 |  | IC50 (Table 1): 43000 nM |
| C=CC1CC1(NC(=O)C1CC(Oc2nc(-c3ccccc3)nc3ccccc23)CN1C(=O)C(Nc1ccc(C(=O)O)cc1)C1CCCCC1)C(=O)O (stereo not shown) | 650 |  |
| CC[C@@H]1C[C@]1(NC(=O)[C@@H]1C[C@@H](OCc2cccc3cccnc23)CN1C(=O)[C@@H](NC(=O)OC(C)(C)C)C1CCCCC1)C(=O)O | 32000 |  |
| C=CC1CC1(NC(=O)C1CC(Oc2cc(C(F)(F)F)nc3c(C(F)(F)F)cccc23)CN1C(=O)C(NC(=O)OC(C)(C)C)C(C)(C)C)C(=O)O (stereo not shown) | 1950 |  |
| O=C(N[C@H](C(=O)N1C[C@H](OCc2cccc3ccccc23)C[C@H]1C(=O)NC1(C(=O)O)CC1)C1CCCCC1)C(CC1CCCCC1)CC1CCCCC1 |  | IC50 (Table 1): 29500 nM |
| C=CC1CC1(NC(=O)C1CC(Oc2cccc3ncccc23)CN1C(=O)C(NC(=O)OC(C)(C)C)C1CCCCC1)C(=O)O (stereo not shown) | 8500 |  |
| CC(C)(C)OC(=O)N[C@H](C(=O)N1C[C@H](Oc2cc(-c3ccccc3)nc3ccc([N+](=O)[O-])cc23)C[C@H]1C(=O)NC1(C(=O)O)CC1)C1CCCCC1 |  | IC50 (Table 1): 2800 nM |
| CC(C)(OC(=O)N[C@H](C(=O)N1C[C@H](OCc2cccc3ccccc23)C[C@H]1C(=O)NC1(C(=O)O)CC1)C1CCCCC1)C(Cl)(Cl)Cl |  | IC50 (Table 1): 34000 nM |
| C=CC1CC1(NC(=O)C1CC(Oc2nc(-n3ccnc3)nc3cc(OC)c(OC)cc23)CN1C(=O)C(NC(=O)OC(C)(C)C)C(C)(C)C)C(=O)O (stereo not shown) | 320 |  |
| CCOC(=O)c1ccc(N[C@H](C(=O)N2C[C@H](OCc3cccc4ccccc34)C[C@H]2C(=O)NC2(C(=O)O)CC2)C2CCCCC2)cc1 |  | IC50 (Table 1): 42000 nM |
| CC(=O)N[C@H](C(=O)N1C[C@H](Oc2cc(-c3ccccc3)nc3ccc([N+](=O)[O-])cc23)C[C@H]1C(=O)NC1(C(=O)O)CC1)C1CCCCC1 |  | IC50 (Table 1): 6300 nM |
